Source: PubChem BioAssay AID1117359 (Southern Research Institute, 2015)
This is a selection; strong and weak results do not stand in their true shares. Results with a measured potency or affinity are listed apart. Active and inactive are the calls of the source.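 How the source made its calls: active means viability at or below 80% at any tested concentration, marking the compound as toxic; inactive means the rest.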

Test: THP-1 cell cytotoxicity, dose response, cytotoxicity control for Vif-APOBEC3G degradation inhibitor project, THP-1 cells (AID 1117359)
Conditions: THP-1 viability, CellTiter-Glo luminescence, 72 h; at 40 µM (top of the series)

| SMILES | viability |
| --- | --- |
| O=[N+]([O-])c1cccc(NC2=NCC(CBr)S2)c1 (stereo unspecified) | inactive: 83% |
